Numbering of substitutions follows the chain as printed.
B1: Antibody 5 (antibody, V domains shown)
VH: QVQLQQSGPGLVKPSQTLSLTCAISGDRVSSNSAVWNWIRQSPSRGLEWLGRTYYRSKWYYDYAESVKSRIVIDPDTSKNQVSLQLNSVTPEDSAIYYCARGGHITVFGLNIDAYDIWGQGAMVTVSS
VL: DIQMTQSPSSLSASVGDRVTISCRAQSLSSYLHWYQQKPGQPPKLLIYAATTLQSGVPSRFSGSGSGTDFTLTISTFQAEDVATYYCQQSRTFGQGTKVEIK
B2: Antibody 6 (antibody, V domains shown)
VH: B1 VH with V107E
VL: B1 VL
B3: Antibody 10 (antibody, V domains shown)
VH: QVQLQQSGPGLVKPSQTLSLTCAISGDSVSSNSATWNWIRQSPSRGLEWLGRTYYRSKWYNDYADFLKRRITINPDTSNNEVSLRLTSVTPDDTALYYCARGGHITVFGVNIDAFDVWGQGTMVTVSS
VL: DIQMTQSPSSLSASVGDRITISCRTSQSLRSYLHWYQQKPGKAPKLLIYASSTLQSGVPSRFSGSGSGTDFTLTISNLQPEDFATYYCQLSRTFGQGTKVEIK
B4: Antibody 8 (antibody, V domains shown)
VH: QVQLQQSGPGLVKPSQTLSLTCVISGDTVSSNRATWNWMRQSPLRGLEWLGRTYYRSKWYNDYAVSVKSRVVINPDTSKNQVSLQLNTVTPDDSGVYFCARGGHITVFGVNIDAFDIWGLGTKVTVSS
VL: DIQMTQSPSSLSASVGDRVTISCRASQRLNSYLHWYQQTPGQAPKLLIYATSTLQSGVSPRFSGSGSGTDFTLTISSLQPEDVATYYCQLSRTFGHGTKVEIK

The binders below were run against HA of ca A/California/7/09 (H1N1) virus (influenza A virus) (assay: cell-based or functional assay).
With B1 the “Neutralization IC50, H1-CA09” value was 2.52 mg/L. With B2 the “Neutralization IC50, H1-CA09” value was 5.56 mg/L. With B3 the “Neutralization IC50, H1-CA09” value was 1.62 mg/L. For B4, the “Neutralization IC50, H1-CA09” value was 4.5 mg/L.

These binders were tested against recombinant HA subtype H1 (A/California/7/09 (H1N1)) (influenza A virus) (assay: not given).
B2 was tested, and the EC50 was 0.311 mg/L. Work on B3 yielded an EC50 of 0.073 mg/L. B4 gave an EC50 of 0.069 mg/L.
